According to patent US10231463B2, “Food mass suitable for microwaving” (Chemische Fabrik Budenheim KG, priority 2013, dated 2019):

Test: Thawing and baking trials with yeast-raised wheat frozen doughs in a microwave oven
Conditions: 2 parts by weight additive; deep-frozen 200 g dough piece; 600 watts, 120 seconds; 2 minutes standing time; infrared sensor
Description: Dough Composition (Basic Recipe):
In addition 2 parts by weight of microwave absorber were added to the basic recipe.
• Mixing and kneading time: 3+2 minutes (the latter in a Stephan mixer) • Dough standing time: 20 minutes • Dough piece weight: 200 g • Cooking time of the dough pieces: 20 minutes • Freezing time: about 4 hours • Deep freeze storage time: about 2 days Thawing and Baking Trials:
The deep-frozen dough pieces were exposed to microwave radiation in a microwave oven from Panasonic (model: NN-GD560M—inverter microwave) for a predetermined period of 120 seconds and with a predetermined microwave power of 600 watts (according to the device indication). After 2 minutes of standing time the temperature of the crust and the crumb was measured by means of an infrared temperature sensor at various measurement points on the dough piece.
Measurement value 1 (M1)=average crust temperature outside
Measurement value 2 (M2)=average crumb temperature in the interior of the dough piece.

| Substance | M1 (average crust temperature outside) [°C] | M2 (average crumb temperature in the interior of the dough piece) [°C] |
| --- | --- | --- |
| Sodium aluminium phosphate 3:2:8 Na3H15Al2*PO4)8 [SALP 2] | 78.3 | 57.8 |
| Ammonium molybdate [AmMD(V), reference compound] | 75.6 | 51.4 |
| Sodium aluminium phosphate 1:3:8 NaH14Al3(PO4)8 [SALP 1] | 74.8 | 45.2 |
| Magnesium metaphosphate [MMP] | 76.9 | 38.5 |
